Taken from: PubChem BioAssay AID624099 (ICCB-Longwood, 2012)
Purpose: 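Human genes that papillomavirus E2 requires to repress the HPV18 LCR promoter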 (primary screen). Cells: human C33A cervical carcinoma cells (HPV-negative) stably expressing BPV1 E2 and an HPV18 LCR luciferase reporter. Reagent: siRNA pool against human genes, 40 nM. Duration: 72 h. Measured: 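Per-well luciferase luminescence, z-scored on each plate against the plate mean and SD with control wells left out, then averaged across three replicate plates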. Scale: mean z-score and z-score: higher = stronger reporter signal, weaker E2 silencing. Call rule: 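Mean z ≥ 2 together with z ≥ 2 in two or more of the three replicates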.
In all, the deposit lists about 21,000 reagents; below is an unselected part. 497 of them (2.4%) count as active. 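Higher z means weaker E2 silencing; only reporter increases were scored, and knock-downs that hurt cell survival may mask genuine repressor factors.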 Entries without a mark were called inactive.

no.	gene	PubChem SID	mean z-score	z-score, replicate A	z-score, replicate B	z-score, replicate C
1	ANGPTL2	SID134312745	-0.2	0.03	0.05	-0.7
2	LOC727983 (retired record)	SID134329079	0.6	0.6	0.63	0.59
3	TAFA1	SID134330009	0.33	0.07	0.47	0.46
4	METTL21A	SID134322336	0.28	-0.01	0.44	0.41
5	MGC70870	SID134329292	-0.04	-0.02	-0.08	0
6	DRAM1	SID134324796	0.18	0.14	0.02	0.37
7	LOC388648 (retired record)	SID134327067	-1.58	-1.69	-1.08	-1.98
8	RNF149	SID134312290	-1.48	-1.73	-1.29	-1.42
9	NOP53	SID134311799	0.82	0.93	0.98	0.54
10	FGF18	SID134315866	0.7	0.61	1.03	0.48
11	CRISP2	SID134323523	-0.03	-0.02	-0.01	-0.06
12	LOC392164 (retired record)	SID134327732	0.14	-0.24	0.41	0.26
13	GNA11	SID134315276	-0.11	0.1	-0.12	-0.31
14	MLF2	SID134316964	-0.84	-0.85	-0.98	-0.68
15	IRF5	SID134316027	-0.87	-0.87	-0.79	-0.94
16	PCDHA7	SID134317486	1	0.84	0.94	1.21
17	WDR27	SID134322989	0.14	0.23	0.03	0.16
18	ABCA10	SID134313403	0.32	0.36	0.28	0.32
19	LOC388639 (retired record)	SID134326994	0.22	0.54	0.17	-0.06
20	SNX7	SID134317450	1.24	1.76	1.17	0.78
21	LYVE1	SID134323867	-0.95	-0.99	-0.87	-0.99
22	RRBP1	SID134316206	0.57	0.66	0.71	0.35
23	MAPK3	SID56478705	-0.94	-1.34	-1.31	-0.17
24	BSX	SID134328250	-0.61	-0.26	-0.42	-1.17
25	SORBS1	SID134323878	-1.25	-1.46	-1.38	-0.91
26	WFDC10B	SID134321495	-0.75	-0.4	-0.69	-1.16
27	AATBC	SID134323097	1.22	1.39	1.03	1.24
28	ITPA	SID134317894	0.46	1.17	0.49	-0.29
29	KLRC3	SID134315651	-1.13	-1.24	-1.02	-1.13
30	STBD1	SID134323274	-1.32	-1.16	-1.39	-1.41
31	ZBTB17	SID134316921	0.1	0.14	0.2	-0.03
32	OR2B11	SID134325301	-0.27	0.11	-0.32	-0.59
33	GALNT16	SID134325234	-0.14	-0.19	-0.19	-0.03
34	PUDP	SID134323785	-0.59	-0.72	-0.31	-0.75
35	BTBD3	SID134317191	0.09	-0.07	0.42	-0.09
36	PLAC9	SID134326500	-0.92	-0.86	-0.92	-0.98
37	LOC402669 (retired record)	SID134327884	-0.08	-0.01	-0.21	-0.01
38	SCO1	SID134316207	-1.08	-1	-1.02	-1.22
39	SERPINE1	SID134323173	2.05	2.69	1.73	1.73

6 of these entries, set out differently:
| gene | PubChem SID | mean z-score | z-score, replicate A | z-score, replicate B | z-score, replicate C |
| --- | --- | --- | --- | --- | --- |
| AATBC | SID134323097 | 1.22 | 1.39 | 1.03 | 1.24 |
| ITPA | SID134317894 | 0.46 | 1.17 | 0.49 | -0.29 |
| KLRC3 | SID134315651 | -1.13 | -1.24 | -1.02 | -1.13 |
| STBD1 | SID134323274 | -1.32 | -1.16 | -1.39 | -1.41 |
| ZBTB17 | SID134316921 | 0.1 | 0.14 | 0.2 | -0.03 |
| OR2B11 | SID134325301 | -0.27 | 0.11 | -0.32 | -0.59 |
